Data taken from PMC5465072 (Scientific Reports, 2017).

Sequences of proteins named here, by UniProt entry; tags and fusion partners are left off. Residues count along the entry.
UniProt P13423, 517-764 limits assumed: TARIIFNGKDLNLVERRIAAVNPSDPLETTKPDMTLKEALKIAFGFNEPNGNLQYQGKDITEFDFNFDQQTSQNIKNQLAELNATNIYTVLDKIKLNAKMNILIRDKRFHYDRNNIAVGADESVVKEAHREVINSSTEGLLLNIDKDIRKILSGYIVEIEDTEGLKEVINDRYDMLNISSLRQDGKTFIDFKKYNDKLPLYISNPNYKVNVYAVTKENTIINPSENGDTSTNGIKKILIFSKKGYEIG
UniProt P58335, 38-218 limits assumed: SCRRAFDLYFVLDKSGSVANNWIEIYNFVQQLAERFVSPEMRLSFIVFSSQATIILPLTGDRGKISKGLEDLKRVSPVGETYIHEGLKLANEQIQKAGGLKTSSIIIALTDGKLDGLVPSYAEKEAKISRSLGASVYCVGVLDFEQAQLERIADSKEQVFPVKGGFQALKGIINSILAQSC

Target: His6-PA488–735 / GST-CMG2_38–218 interaction (UniProt P13423+P58335)
Assay type: biochemical, Bacillus anthracis PA / human CMG2

For FCRTL, the “IC50 for disruption of the interaction of His6-PA488–735 and GST-CMG2_38–218” value was “does not inhibit”.
